Reference: patent publication US9650427B2, “Modulators of antiviral signaling pathways and therapeutic uses thereof” (priority 2011, dated 2017)

Tested on: RLR/MAVS pathway
Experiment: Reovirus-induced IFN expression in T84 cells, qPCR
Format: cell-based, human
Details: T84 cells pretreated 1 hr, infected with Type III Dearing Strain reovirus for 5 hours; FIG. 3

## GNRDTLWHLFNTLQRRPGWVEYFI-RQIKIWFQNRRMKWKK
  Reovirus-induced Type I and Type III IFN expression: prevented
